Values from PubChem BioAssay AID504761 (Drosophila RNAi Screening Center, 2011).
In all, the deposit lists about 22,000 reagents; shown is an unselected part of those that have a named target and a result. Over the whole deposit, 116 (0.52%) were called active. 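Calls depend on retest data that are not deposited; infection was ranked per plate without normalising between plates; the unit of the infection score is not given.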 A number with no mark means an inactive call. Reagents against one gene are numbered here. Not all columns of the deposit are shown. Not stated in the record: the amount of reagent, the time to read-out.

Test: 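Insect host genes that dengue virus relies on to spread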 (primary screen)
System: D.Mel-2 cells from Drosophila
Reagent: long dsRNA against Drosophila genes
Conditions: infection with dengue virus type 2; dose and infection time not stated
Read-out: 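Cells stained for dengue envelope protein and imaged; percent of infected cells per well on duplicate plates, ranked by infection, with stained nuclei counted for cell number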
Reading the numbers: infection score: higher = more virus-infected cells
Active means: 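Low infection ranks in the two replicates (chance level up to 0.065) followed by a retest with a 1.5-fold or larger significant decrease, p below 0.05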
Calls: active = confirmed: knock-down lowers infection; inactive = not picked or not confirmed

| target gene | reagent no. | infection score, replicate 1 | infection score, replicate 2 |
| --- | --- | --- | --- |
| CG5191 | 1 | 3.97 | 5.39 |
| CG5191 | 2 | 4.5 | 5.07 |
| CG5191 | 3 | 0.87 | 1.52 |
| CG5191 | 4 | 4.47 | 12 |
| rictor (rapamycin-insensitive companion of Tor) | 1 | 1.04 | 5.69 |
| AGO2 (Argonaute 2) | 1 | 18.4 | 22.2 |
| DNAlig4 (DNA ligase 4) | 1 | 0.88 | 2.67 |
| mys (myospheroid) | 1 | 1.09 | 3.23 |
| mys (myospheroid) | 2 | 17.9 | 7.25 |
| CG6409 | 1 | 9.77 | 23.7 |
| CG6409 | 2 | 2.68 | 2.83 |
| CG6409 | 3 | 1.76 | 1.14 |
| blot (bloated tubules) | 1 | 1.06 | 0.33 |
| blot (bloated tubules) | 2 | 4.32 | 2.61 |
| blot (bloated tubules) | 3 | 12.3 | 5.97 |
| Wdr81 (WD repeat domain 81) | 1 | 10.5 | 11.9 |
| Wdr81 (WD repeat domain 81) | 2 | 4.18 | 3.7 |
| CG42342 | 1 | 2.83 | 0.44 |
| CG42342 | 2 | 4.74 | 14.7 |
| CG42342 | 3 | 0.97 | 10.6 |
| CG42342 | 4 | 6.14 | 27.2 |
| CG42342 | 5 | 2.08 | 1.44 |
| CG42342 | 6 | 1.52 | 5.83 |
| CG42342 | 7 | 2.78 | 1.61 |
| CG42342 | 8 | 4.57 | 4.57 |
| CG42342 | 9 | 4.17 | 1.07 |
| CG42342 | 10 | 24.9 | 10.9 |

An excerpt from the list above, for reference:
| target gene | reagent no. | infection score, replicate 1 | infection score, replicate 2 |
| --- | --- | --- | --- |
| CG42342 | 8 | 4.57 | 4.57 |
| CG42342 | 9 | 4.17 | 1.07 |
| CG42342 | 10 | 24.9 | 10.9 |
